In patent US5622933A, “Multiple branch peptide constructions for use against HIV” (priority 1993, dated 1997):

Tested on: 8E5 cells
Assay: Toxicity in the cell fusion test (MTT assay or trypan blue exclusion)
Settings: 5 × 10^-5 M

For [GPG(R)D AF]8 -MLC, the Toxicity was “Toxic”.
